Source: paper PMC5541348

Test system: T1, His6-MabR (MabRMT/MabRTB)
T1 sequence (looked up, limits assumed): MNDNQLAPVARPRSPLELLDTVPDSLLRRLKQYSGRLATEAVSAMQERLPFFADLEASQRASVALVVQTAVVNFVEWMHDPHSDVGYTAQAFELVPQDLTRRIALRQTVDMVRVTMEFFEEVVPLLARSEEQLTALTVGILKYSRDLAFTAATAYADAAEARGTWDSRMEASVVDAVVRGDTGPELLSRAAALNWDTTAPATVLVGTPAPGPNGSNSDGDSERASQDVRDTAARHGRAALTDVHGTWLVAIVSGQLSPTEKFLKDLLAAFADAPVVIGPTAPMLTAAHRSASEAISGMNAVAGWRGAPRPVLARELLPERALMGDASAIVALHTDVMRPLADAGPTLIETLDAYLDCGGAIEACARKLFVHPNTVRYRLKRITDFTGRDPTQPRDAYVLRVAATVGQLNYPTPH
Assay: EMSA
Details: recombinant protein, protein details: His6, label: 32P 5' end label, probe letters rebuilt from the primers and the genome

CGAACCCTGTCCGGGTGCGAGCAACGCAATCACGTGTCTAAGAGAACACTGTGAAGACGGTTTTGCGCGGTGTAACAGATTATGAACCTCGTCTTAGGTTTTTGTATATAACCAACAAAACGGGCCTGTAAGCTATGTTTTTGAGATCGTCCCGCGACCTGTTGTCTGGATCACTTTCCGTCCGACGGCGCCCCTGGTATCTTTCCGGGGCCCCTGCTGGACCCCCTCTGACCGGCGAGGGAATCTATGACACGGCATTGCTGTCGATGCTT (double strand) [PfasIIMT 272 bp probe]
binds: binding result (C16-CoA 0.1-1 uM, no effect on binding) | binding result (C18-CoA 1 uM, binding increased) | binding result (C20-CoA 0.1-1 uM, binding enhanced) | binding result (C22-CoA 0.1-1 uM, binding enhanced) | binding result

For at least one entry, the source does not settle the construct or the ends of the probe. At least one verdict rests on a figure or table, not on a statement of the authors. Tags and fusion partners may be left off the protein sequences shown.
